Measurements taken from paper PMC3204966.

Tests used:
[1] = system: O=P(O)(O)O[C@H]1O[C@H](CO)[C@@H](O)[C@H](O)[C@@H]1O; experiment: purified protein; conditions: pH 7.55; 25.0 °C
[2] = system: Nc1nc2c(ncn2[C@@H]2O[C@H](COP(=O)(O)OP(=O)(O)O[C@H]3O[C@H](CO)[C@@H](O)[C@H](O)[C@@H]3O)[C@@H](O)[C@H]2O)c(=O)[nH]1; experiment: purified protein; conditions: pH 7.55; 25.0 °C

**Q.** “CBU0294 (PMM) (Coxiella burnetii RSA 493)” was tested. Which Km [1] did it give?
**A.** The Km was 228 µM.

**Q.** And the Vmax [1]?
**A.** The Vmax was 44 µmol/min.

**Q.** With “CBU0671 (type II PMI; PMI/GMP) (Coxiella burnetii RSA 493)” as the substance, how does the Km [2] read?
**A.** Its Km is 379 µM.

**Q.** And the Vmax [2]?
**A.** Its Vmax is 0.757 µmol/min.
